Some entries repeat one wording, which the source may state once for all of them.
What was measured:
activated sludge = assay: Biodegradability test, amended SCAS method (302A Modified SCAS Test, OECD guideline); settings: for Retention rate by HPLC (%) / Retention rate by TOC (%): amended SCAS method, activated sludge, supernatant liquid
[1] = tested on: microorganisms living in environmental water such as rivers, lakes, and general sewage; assay: Decomposition by microorganisms living in environmental water; settings: without activated sludge treatment

Structure (SMILES) | Retention rate by HPLC (%) (activated sludge) | Retention rate by TOC (%) (activated sludge) | decomposition by microorganisms living in environmental water [1] | biodegradability in 302A Modified SCAS Test (activated sludge)
O=C([O-])C[C@@H](C(=O)[O-])N(CC(=O)[O-])CC(=O)[O-].[Na+].[Na+].[Na+].[Na+] | 0 | 0 |  | 
O=C([O-])CC[C@@H](C(=O)[O-])N(CC(=O)[O-])CC(=O)[O-].[Na+].[Na+].[Na+].[Na+] | 0 | 0 |  | 
O=C([O-])CN(CCS(=O)(=O)[O-])CC(=O)[O-].[Na+].[Na+].[Na+] | 0 | 0 |  | 
O=C([O-])CC(C(=O)[O-])N(CC(=O)[O-])CC(=O)[O-].[Na+].[Na+].[Na+].[Na+] (racemic) [Racemic aspartic acid-N,N-diacetic acid tetrasodium salt] | 65 | 50 |  | 
O=C([O-])CCC(C(=O)[O-])N(CC(=O)[O-])CC(=O)[O-].[Na+].[Na+].[Na+].[Na+] (racemic) [Racemic glutamic acid-N,N-diacetic acid tetrasodium salt] | 60 | 50 |  | 
CN(CC(=O)O)CC(=O)O [MIDA, N-methyliminodiacetic acid] |  |  | readily decomposed by microorganisms living in environmental water | 
O=C(O)C[C@@H](C(=O)O)N(CC(=O)O)CC(=O)O [S-ASDA, (S)-aspartic acid-N,N-diacetic acid] |  |  |  | completely decomposed to inorganic materials
O=C(O)CN[C@@H](CC(=O)O)C(=O)O [S-ASMA, (S)-aspartic acid-N-monoacetic acid] |  |  | readily decomposed by microorganisms living in environmental water | 
O=C(O)CCN[C@@H](CC(=O)O)C(=O)O [S-ASMP, (S)-aspartic acid-N-monopropionic acid] |  |  | readily decomposed by microorganisms living in environmental water | 
O=C(O)CN(CCS(=O)(=O)O)CC(=O)O [TUDA, taurine-N,N-diacetic acid] |  |  |  | completely decomposed to inorganic materials in a short time
